Measured values from several laboratories, pooled; numbers as filed in NIAID ChemDB.

Common to all: host cell toxicity; cell line: HepG2; read-out: CC50

CCn is the concentration with n% toxicity to the cells. a–b is a range or a potency band. Blank or dashed fields: not listed here. Rows are shuffled and stem from different studies.

SMILES,method,value
COc1ccc2nc3cc(Cl)ccc3c(NCCCCNC(=O)/C=C/c3ccc(Cl)cc3)c2c1,MTT,4.3 µM
Cc1cc(NC(=O)c2c(C)c(C(=O)C(=O)NC3(CC(=O)O)CCCNC3)n(C)c2C)ccc1F,MTT,>30 µM
CC1(C)N=C(N)N=C(N)N1OCCCOc1cc(Cl)c(Cl)cc1Cl,resazurin / fluorescence,40 µM
Nc1cn([C@H]2C[C@H](O)[C@@H](CO)O2)c(=O)nc1N,,>10 µM
CC[C@H]1OC(=O)[C@H](C)[C@@H](O)[C@H](C)[C@@H](O[C@@H]2O[C@H](C)C[C@H](N(C)C)[C@H]2OCCCNCc2cnc3ccccc3c2)[C@](C)(O)C[C@@H](C)CN(C)[C@H](C)[C@@H](O)[C@]1(C)O,MTS,>100 µM
CC(C)C[C@@H]1NC(=O)[C@H](Cc2ccccc2)NC(=O)[C@@H](CCCCN)NC(=O)[C@H](CC(N)=O)NC(=O)[C@H](C(C)C)NC(=O)[C@@H](CC(C)C)NC1=O,MTT,>30 µM
Cc1ccc(S(=O)(=O)c2cc3ccccc3c3sc(C)nc23)cc1,MTT,>250 µM
Cc1cc(NC(=O)c2c(C(C)C)c(C(=O)C(=O)NC3(C)CC(O)C3)n(C)c2C)ccc1F,MTT,>30 µM
CC[C@H]1OC(=O)[C@H](C)[C@@H](O[C@H]2C[C@@](C)(OC)[C@@H](O)[C@H](C)O2)[C@H](C)[C@@H](O[C@@H]2O[C@H](C)C[C@H](N(C)C)[C@H]2OCCCNC(=O)CNc2ccnc3cc(Cl)ccc23)[C@](C)(O)C[C@@H](C)CN(C)[C@H](C)[C@@H](O)[C@]1(C)O,MTS,28 µM
CNC(=O)c1ccc(-n2c([C@@H](O)C(C)C)nc3c(c2=O)C[C@@H](C)N(C(=O)c2ccc(Cl)c(C(F)(F)F)c2)C3)cc1,luminescence,>50 µM
CC[C@H]1OC(=O)[C@H](C)[C@@H](O[C@H]2C[C@@](C)(OC)[C@@H](O)[C@H](C)O2)[C@H](C)[C@@H](O[C@@H]2O[C@H](C)C[C@H](N(C)C)[C@H]2OCCCNCc2ccc3ccccc3n2)[C@](C)(O)C[C@@H](C)CN(C)[C@H](C)[C@@H](O)[C@]1(C)O,MTS,30 µM
COc1ccc(F)cc1CNCCCNc1ccnc2cc(Cc3cc(C)cc(C)c3)ccc12,fluorescence,0.94 µM
CC[C@H]1OC(=O)[C@H](C)[C@@H](O[C@H]2C[C@@](C)(OC)[C@@H](O)[C@H](C)O2)[C@H](C)[C@@H](O[C@@H]2O[C@H](C)C[C@H](N(C)C)[C@H]2OCCCNCc2ccnc3ccccc23)[C@](C)(O)C[C@@H](C)CN(C)[C@H](C)[C@@H](O)[C@]1(C)O,MTS,45 µM
N#Cc1ccc(Cn2ccc3c4c(N)nc(N)nc4ccc32)cc1,resazurin / fluorescence,10 µM
CC[C@H]1OC(=O)[C@H](C)[C@@H](O)[C@H](C)[C@@H](O[C@@H]2O[C@H](C)C[C@H](N(C)C)[C@H]2OCCCNCc2ccnc3ccccc23)[C@](C)(O)C[C@@H](C)CN(C)[C@H](C)[C@@H](O)[C@]1(C)O,MTS,>100 µM
C=C1c2c(c(C)n(C)c2C(=O)Nc2ccc(F)c(C)c2)C(=O)NC1C,MTT,0.5–4.99 µM
Nc1cn([C@@H]2C[C@H](O)[C@@H](CO)O2)c(=O)nc1N,,>10 µM
CNC(=O)c1cc(-n2c(NC(C)C)nc3c(c2=O)C[C@@H](C)N(C(=O)c2ccc(Cl)c(C(F)(F)F)c2)C3)nn1C(C)C,luminescence,>50 µM
CC[C@H]1OC(=O)[C@H](C)[C@@H](O[C@H]2C[C@@](C)(OC)[C@@H](O)[C@H](C)O2)[C@H](C)[C@@H](O[C@@H]2O[C@H](C)C[C@H](N(C)C)[C@H]2OCCCNC(=O)CCCNc2ccnc3cc(Cl)ccc23)[C@](C)(O)C[C@@H](C)CN(C)[C@H](C)[C@@H](O)[C@]1(C)O,MTS,50 µM
CCC1(NC(=O)C(=O)c2c(C)c(C(=O)Nc3ccc(F)c(C)c3)c(C)n2C)CCN(C(=O)c2cnn(C)c2)CC1,MTT,>30 µM
COc1cc2cc(S(=O)(=O)c3ccccc3)c3nc(C)sc3c2cc1OC,MTT,>500 µM
NC(=NC1CC1)c1ccc(N2CCN(c3ccc(C(N)=NC4CC4)cc3)CC2)cc1,,>543 µM
Cc1nc2c(S(=O)(=O)c3ccc(Cl)cc3)cc3cc(F)ccc3c2s1,MTT,>31.2 µM
CN=C(N)c1ccc(N2CCN(c3ccc(C(N)=NC)cc3)CC2)cc1,,361 µM
CC(C)C[C@@H]1NC(=O)[C@H](Cc2c[nH]c3ccccc23)NC(=O)C(CCCN=C(N)N)NC(=O)[C@H](CC(N)=O)NC(=O)[C@H](C(C)C)NC(=O)[C@@H](CC(C)C)NC1=O,MTT,>30 µM
COc1ccc(N2CCN(Cc3ccc([N+](=O)[O-])o3)CC2)cc1,MTT,>63 µM
CNC(=O)N1CC2(CC(n3c(NC(C)C)nc4c(c3=O)C[C@@H](C)N(C(=O)c3ccc(Cl)c(C(F)(F)F)c3)C4)C2)C1,luminescence,>50 µM
CC(C)C[C@@H]1NC(=O)[C@H](Cc2c[nH]c3ccccc23)NC(=O)[C@@H](CCCCN)NC(=O)[C@H](CC(N)=O)NC(=O)[C@H](C(C)C)NC(=O)[C@@H]2CCCN2C1=O,MTT,>30 µM
CC(C)CCc1ccc2c(NCCCNCc3ccco3)ccnc2c1,fluorescence,11.24 µM
Cc1c2c(c(C(=O)Nc3cccc(Cl)c3)n1C)CCC(C)(C)NC2=O,MTT,>30 µM
CCN(CC)CCCN=C(Nc1ccnc2cc(Cl)ccc12)c1ccccc1,MTT,12.02 µg/mL
CC1(C)C(=O)C=C[C@]2(C)[C@@H]1CC[C@@]13CC[C@@H](C[C@H]12)[C@](O)(CO)C3,MTT,>100 µM
CC(C)C[C@@H]1NC(=O)[C@H](Cc2c[nH]c3ccccc23)NC(=O)[C@@H](CO)NC(=O)[C@H](CC(N)=O)NC(=O)[C@H](C(C)C)NC(=O)[C@@H](CC(C)C)NC1=O,MTT,>30 µM
Clc1ccc(Oc2ccc3c(NCCCNCc4ccco4)ccnc3c2)cc1,fluorescence,7.8 µM
O=c1[nH]c(=O)n([C@H]2CC[C@@H](CO)O2)cc1[N+](=O)[O-],,>10 µM
CC(C)C[C@@H]1NC(=O)[C@H](Cc2c[nH]c3ccccc23)NC(=O)[C@@H](CCCCN)NC(=O)[C@H](CC(=O)O)NC(=O)[C@H](C(C)C)NC(=O)[C@@H](CC(C)C)NC1=O,MTT,>30 µM
C/C=C(\C)C(=O)OC[C@]1(C)C(=O)CC[C@@]2(C)[C@@H]3CC[C@H]4C[C@@]3(CC[C@@H]21)C[C@@]4(O)CO,MTT,0.01 µM
COc1ccc(/C=C/C(=O)NCCCCNc2c3ccc(Cl)cc3nc3ccc(OC)cc23)cc1,MTT,20.5 µM
CC(C)C[C@@H]1NC(=O)[C@H](Cc2c[nH]c3ccccc23)NC(=O)CNC(=O)[C@H](CCCCN)NC(=O)[C@H](C(C)C)NC(=O)[C@@H](CC(C)C)NC1=O,MTT,>30 µM
CCn1nc(-n2c(NC(C)C)nc3c(c2=O)C[C@@H](C)N(C(=O)c2ccc(Cl)c(C(F)(F)F)c2)C3)cc1C(=O)NC,luminescence,>50 µM
CCCCCN=C(N)c1ccc(N2CCN(c3ccc(C(N)=NCCCCC)cc3)CC2)cc1,,>0.14 µg/mL
CC[C@H]1OC(=O)[C@H](C)[C@@H](O[C@H]2C[C@@](C)(OC)[C@@H](O)[C@H](C)O2)[C@H](C)[C@@H](O[C@@H]2O[C@H](C)C[C@H](N(C)C)[C@H]2OCCCNC(=O)CCCNc2ccnc3ccccc23)[C@](C)(O)C[C@@H](C)CN(C)[C@H](C)[C@@H](O)[C@]1(C)O,MTS,>100 µM
NNC(=O)c1ccc(N2CCN(c3ccc(C(=O)NN)cc3)CC2)cc1,,866.8 µM
CNC(=O)[C@@H]1CC[C@@H](n2c(NC(C)C)nc3c(c2=O)C[C@@H](C)N(C(=O)c2ccc(Cl)c(C(F)(F)F)c2)C3)C1,luminescence,34.4 µM
Cc1cc(NC(=O)c2c(C)c(C(=O)C(=O)NCC(C)(C)O)n(C)c2-c2ccccn2)ccc1F,MTT,>30 µM
Cc1cccc(NC(=O)c2c3c(c(C)n2C)C(=O)N[C@@H](C)C3)c1F,MTT,>30 µM
CCC(CC)c1ccc2c(NCCCNCc3cccc(OC)c3O)ccnc2c1,fluorescence,0.41 µM
CNC(=O)c1c(Cl)c(-n2c(NC(C)C)nc3c(c2=O)C[C@@H](C)N(C(=O)c2ccc(Br)c(C(F)(F)F)c2)C3)nn1C,luminescence,>50 µM
Cc1cc(NC(=O)c2c(C)c(C(=O)C(=O)NC3(C)CC(O)C3)n(C)c2-c2cccnc2)ccc1F,MTT,>30 µM
NNC(=O)c1ccncc1,MTT,>30 µM
CC[C@H]1OC(=O)[C@H](C)[C@@H](O[C@H]2C[C@@](C)(OC)[C@@H](O)[C@H](C)O2)[C@H](C)[C@@H](O[C@@H]2O[C@H](C)C[C@H](N(C)C)[C@H]2OCCCNCc2cnc3ccccc3c2)[C@](C)(O)C[C@@H](C)CN(C)[C@H](C)[C@@H](O)[C@]1(C)O,MTS,20 µM
CCCCCCN=C(N)c1ccc(N2CCN(c3ccc(C(N)=NCCCCCC)cc3)CC2)cc1,,>0.409 µg/mL
Nc1nc2c(ncn2[C@@H]2C[C@H](O)[C@H](CO)O2)c(=O)[nH]1,,>200 µM
CC[C@H]1OC(=O)[C@H](C)[C@@H](O[C@H]2C[C@@](C)(OC)[C@@H](O)[C@H](C)O2)[C@H](C)[C@@H](O[C@@H]2O[C@H](C)C[C@H](N(C)C)[C@H]2OCCCNc2ccnc3ccccc23)[C@](C)(O)C[C@@H](C)CN(C)[C@H](C)[C@@H](O)[C@]1(C)O,MTS,80 µM
Nc1nc(=O)n([C@H]2C[C@H](O)[C@@H](CO)O2)cc1[N+](=O)[O-],,>10 µM
Cc1ccc(S(=O)(=O)c2c(N)c3cc(F)ccc3c3sc(C)nc23)cc1,MTT,11.3 µM
COc1ccc(F)cc1CNCCCNc1ccnc2cc(Cc3ccc(C#N)cc3)ccc12,fluorescence,6.05 µM

The last 8 rows once more:

{"SMILES": "NNC(=O)c1ccncc1", "method": "MTT", "value": ">30 µM"}
{"SMILES": "CC[C@H]1OC(=O)[C@H](C)[C@@H](O[C@H]2C[C@@](C)(OC)[C@@H](O)[C@H](C)O2)[C@H](C)[C@@H](O[C@@H]2O[C@H](C)C[C@H](N(C)C)[C@H]2OCCCNCc2cnc3ccccc3c2)[C@](C)(O)C[C@@H](C)CN(C)[C@H](C)[C@@H](O)[C@]1(C)O", "method": "MTS", "value": "20 µM"}
{"SMILES": "CCCCCCN=C(N)c1ccc(N2CCN(c3ccc(C(N)=NCCCCCC)cc3)CC2)cc1", "value": ">0.409 µg/mL"}
{"SMILES": "Nc1nc2c(ncn2[C@@H]2C[C@H](O)[C@H](CO)O2)c(=O)[nH]1", "value": ">200 µM"}
{"SMILES": "CC[C@H]1OC(=O)[C@H](C)[C@@H](O[C@H]2C[C@@](C)(OC)[C@@H](O)[C@H](C)O2)[C@H](C)[C@@H](O[C@@H]2O[C@H](C)C[C@H](N(C)C)[C@H]2OCCCNc2ccnc3ccccc23)[C@](C)(O)C[C@@H](C)CN(C)[C@H](C)[C@@H](O)[C@]1(C)O", "method": "MTS", "value": "80 µM"}
{"SMILES": "Nc1nc(=O)n([C@H]2C[C@H](O)[C@@H](CO)O2)cc1[N+](=O)[O-]", "value": ">10 µM"}
{"SMILES": "Cc1ccc(S(=O)(=O)c2c(N)c3cc(F)ccc3c3sc(C)nc23)cc1", "method": "MTT", "value": "11.3 µM"}
{"SMILES": "COc1ccc(F)cc1CNCCCNc1ccnc2cc(Cc3ccc(C#N)cc3)ccc12", "method": "fluorescence", "value": "6.05 µM"}